Measurements reported in PubChem BioAssay AID1259414 (Drosophila RNAi Screening Center, 2018).
The deposit covers about 24,000 reagents; this is an unselected part of those that have a named target and a result. Over the whole deposit, about 1,210 (5%) were called active. 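Inactive calls also include excluded dsRNAs with several or no targets, genes unexpressed in JW18, and well A1, regardless of score.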 Unmarked entries are inactive. The numbers tell different reagents against one gene apart. Names joined by + are all predicted targets of the reagent.

Test: 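Host factors increasing or decreasing Wolbachia levels in cultured fly cells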 (primary screen)
Cell system: Drosophila JW18 cells infected with Wolbachia
Reagent: long dsRNA against Drosophila genes, 0.25 µg dsRNA per well of a 384-well plate
Duration: 5 days
Treatment: cells persistently infected with Wolbachia before knock-down; no added drug
Measured: 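Imaged fluorescence in situ signal for Wolbachia 23S rRNA per DAPI-counted host cell, given as a robust z-score within each plate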
Reading the numbers: Wolbachia per cell robust z: higher = more Wolbachia per host cell than the plate typical
Rule for the call: 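Active if absolute robust z reaches 1.5 in two or more of three replicates, leaving out multi- or no-target dsRNAs, genes unexpressed in JW18 and A1 wells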

After knock-down of CG14273 #1, the record shows Wolbachia per cell robust z, rep 1 = -0.0977; Wolbachia per cell robust z, rep 2 = 0.118; Wolbachia per cell robust z, rep 3 = 0.801. Against CG14273 #2 the deposit lists Wolbachia per cell robust z, rep 1 = -0.727; Wolbachia per cell robust z, rep 2 = -7.01; Wolbachia per cell robust z, rep 3 = -0.144. With knock-down of CG33462, the record shows Wolbachia per cell robust z, rep 1 = -1.13; Wolbachia per cell robust z, rep 2 = 0.529; Wolbachia per cell robust z, rep 3 = -1.65. Knock-down of PpY-55A #1 came out at: Wolbachia per cell robust z, rep 1 = 1.19; Wolbachia per cell robust z, rep 2 = 0.675; Wolbachia per cell robust z, rep 3 = 0.393. For PpY-55A #2, the entry reads Wolbachia per cell robust z, rep 1 = 0.66; Wolbachia per cell robust z, rep 2 = 0.0974; Wolbachia per cell robust z, rep 3 = 0.0385. PpY-55A #3 gave Wolbachia per cell robust z, rep 1 = -1.86; Wolbachia per cell robust z, rep 2 = -0.517; Wolbachia per cell robust z, rep 3 = -0.294.

With knock-down of Spag1, the screen gave Wolbachia per cell robust z, rep 1 = 1.13; Wolbachia per cell robust z, rep 2 = -2.59; Wolbachia per cell robust z, rep 3 = 1.06. For CG4408 the deposit lists Wolbachia per cell robust z, rep 1 = -13.1; Wolbachia per cell robust z, rep 2 = 0.167; Wolbachia per cell robust z, rep 3 = -0.997. Against CG32170, the entry reads Wolbachia per cell robust z, rep 1 = 0.622; Wolbachia per cell robust z, rep 2 = 0.454; Wolbachia per cell robust z, rep 3 = 0.915. Depletion of CG15097 #1 came out at: Wolbachia per cell robust z, rep 1 = 0.423; Wolbachia per cell robust z, rep 2 = 0.549; Wolbachia per cell robust z, rep 3 = -0.0262. For CG15097 #2 the deposit lists Wolbachia per cell robust z, rep 1 = 0.563; Wolbachia per cell robust z, rep 2 = 1.53; Wolbachia per cell robust z, rep 3 = 0.639. For CG43292 the deposit lists Wolbachia per cell robust z, rep 1 = 0.797; Wolbachia per cell robust z, rep 2 = 0.889; Wolbachia per cell robust z, rep 3 = 0.216.

Against CG12521 the deposit lists Wolbachia per cell robust z, rep 1 = -1.16; Wolbachia per cell robust z, rep 2 = -0.443; Wolbachia per cell robust z, rep 3 = 0.0992.

Look-ups from the entries so far.
For “Wolbachia per cell robust z, rep 1”, CG15097 #1 reads 0.423
Entry for CG12521 under “Wolbachia per cell robust z, rep 3”: 0.0992
Under “Wolbachia per cell robust z, rep 1”, CG14273 #2 reads -0.727
For “Wolbachia per cell robust z, rep 3”, PpY-55A #1 has 0.393
CG33462, Wolbachia per cell robust z, rep 3 → -1.65

Next reagents:
For CG13300 #1, the entry reads Wolbachia per cell robust z, rep 1 = 0.577; Wolbachia per cell robust z, rep 2 = 0.522; Wolbachia per cell robust z, rep 3 = 1.22. With knock-down of CG13300 #2 the results were Wolbachia per cell robust z, rep 1 = -1.09; Wolbachia per cell robust z, rep 2 = 1.17; Wolbachia per cell robust z, rep 3 = -0.287. CG31674 #1 scored Wolbachia per cell robust z, rep 1 = 0.947; Wolbachia per cell robust z, rep 2 = 0.25; Wolbachia per cell robust z, rep 3 = -4.76. With knock-down of CG31674 #2, the screen gave Wolbachia per cell robust z, rep 1 = -0.737; Wolbachia per cell robust z, rep 2 = 1.45; Wolbachia per cell robust z, rep 3 = 0.0974. For CG31495 #1, the values are Wolbachia per cell robust z, rep 1 = 0.763; Wolbachia per cell robust z, rep 2 = -0.0024; Wolbachia per cell robust z, rep 3 = -1.28. With knock-down of CG31495 #2, the screen gave Wolbachia per cell robust z, rep 1 = -2.4 (active); Wolbachia per cell robust z, rep 2 = -1.21; Wolbachia per cell robust z, rep 3 = -1.61.

For peg #1 the deposit lists Wolbachia per cell robust z, rep 1 = -1.16; Wolbachia per cell robust z, rep 2 = -0.534; Wolbachia per cell robust z, rep 3 = -7.13. Depletion of peg #2 came out at: Wolbachia per cell robust z, rep 1 = -3.04 (active); Wolbachia per cell robust z, rep 2 = -3.16; Wolbachia per cell robust z, rep 3 = -1.41. Knock-down of Cht11 #1 resulted in: Wolbachia per cell robust z, rep 1 = -4.74 (active); Wolbachia per cell robust z, rep 2 = -2.02; Wolbachia per cell robust z, rep 3 = 0.34. Against Cht11 #2, the entry reads Wolbachia per cell robust z, rep 1 = 0.406; Wolbachia per cell robust z, rep 2 = -1.19; Wolbachia per cell robust z, rep 3 = -0.507. For CG14221, the entry reads Wolbachia per cell robust z, rep 1 = 0.751; Wolbachia per cell robust z, rep 2 = 0.973; Wolbachia per cell robust z, rep 3 = 0.43. Yp1 #1 gave Wolbachia per cell robust z, rep 1 = -0.743; Wolbachia per cell robust z, rep 2 = -1.43; Wolbachia per cell robust z, rep 3 = -0.248.

Yp1 #2 scored Wolbachia per cell robust z, rep 1 = 0.0678; Wolbachia per cell robust z, rep 2 = -1; Wolbachia per cell robust z, rep 3 = 0.789. RNaseMRP:RNA showed Wolbachia per cell robust z, rep 1 = 0.357; Wolbachia per cell robust z, rep 2 = -0.0623; Wolbachia per cell robust z, rep 3 = -0.412. bocks scored Wolbachia per cell robust z, rep 1 = 0.287; Wolbachia per cell robust z, rep 2 = 0.21; Wolbachia per cell robust z, rep 3 = -1.55. Depletion of CG10845 came out at: Wolbachia per cell robust z, rep 1 = 0.305; Wolbachia per cell robust z, rep 2 = 0.177; Wolbachia per cell robust z, rep 3 = -0.586. With knock-down of Roc1b + Cdc5, the screen gave Wolbachia per cell robust z, rep 1 = -1.43; Wolbachia per cell robust z, rep 2 = -1.05; Wolbachia per cell robust z, rep 3 = -2.33.
